Columns and labels:
[1] = target: 229E Mpro (Human coronavirus 229E, UniProt P0C6X1); assay: 229E Mpro enzymatic assay; conditions: read-out: 229E Mpro IC50; Table 3
Procedure: (§1) Compounds were assayed using standard methods to assess compound activity and IC50. As an exemplary for assessment of the SARS-COV2 Mpro, the C-His6-tagged Mpro (NC_045512) was cloned, expressed in E. coli and purified. The assay buffer contained 20 mM of Tris-HCl (pH 7.3), 100 mM of NaCl, 1 mM of EDTA, 5 mM of TCEP and 0.1% BSA. The final concentrations of the Mpro protein and substrate were 25 nM and 25 μM, respectively, in the Mpro enzymatic assay. The Km of the Mpro substrate for the protease was 13.5 μM.
(§2) The compounds were added to an assay plate. For 100% inhibition control (HPE, hundred percent effect), 1 μM GC376 was added. For no inhibition control (ZPE, zero percent effect), no compound was added.
(§3) IC50 values of compounds were calculated with the GraphPad Prism software using the nonlinear regression model of log(inhibitor) vs. response—Variable slope (four parameters). The inhibition activity was calculated using the formula below, IC50 values is calculated using the Inhibition % data.
(§4) [formula] • #HEP: Hundred percent effect controls. Containing substrate+enzyme+1 μM GC376. • ZPE: Zero percent effective controls. Containing enzyme+substrate, no compound. • Sample: Compound activity testing wells. Containing compound+enzyme+substrate. • BG: Compound background control wells. Containing compound+substrate, no enzyme.

Protein sequences, listed by entry. Tags and fused reporters are not part of them. Residues count along the entry.
UniProt P0C6X1, 2966-3267 limits assumed: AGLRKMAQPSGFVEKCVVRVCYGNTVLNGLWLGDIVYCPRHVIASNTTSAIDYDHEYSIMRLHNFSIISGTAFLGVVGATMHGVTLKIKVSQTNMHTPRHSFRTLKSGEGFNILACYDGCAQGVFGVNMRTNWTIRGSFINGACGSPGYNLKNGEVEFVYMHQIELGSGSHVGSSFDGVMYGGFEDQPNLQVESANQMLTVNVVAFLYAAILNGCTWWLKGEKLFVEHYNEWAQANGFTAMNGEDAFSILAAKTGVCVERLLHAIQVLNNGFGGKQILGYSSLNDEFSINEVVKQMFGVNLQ
UniProt P0C6X6, 3247-3549 limits assumed: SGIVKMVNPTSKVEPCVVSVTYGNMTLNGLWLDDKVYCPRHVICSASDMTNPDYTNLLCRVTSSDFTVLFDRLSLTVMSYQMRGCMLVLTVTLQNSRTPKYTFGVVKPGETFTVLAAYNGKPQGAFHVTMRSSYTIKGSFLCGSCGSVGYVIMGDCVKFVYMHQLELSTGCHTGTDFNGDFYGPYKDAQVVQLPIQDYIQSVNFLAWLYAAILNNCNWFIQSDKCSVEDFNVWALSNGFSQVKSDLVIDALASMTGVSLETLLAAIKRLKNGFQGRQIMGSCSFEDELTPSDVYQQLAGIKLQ

[2] = target: SARS-COV2 Mpro (Severe acute respiratory syndrome coronavirus 2, UniProt P0DTD1); assay: COVID-19 (nCoV-2019, SARS-CoV2) Mpro enzymatic assay; conditions: read-out: COVID-19 Mpro IC50; Table 3
[3] = target: OC43 Mpro (Human coronavirus OC43, UniProt P0C6X6); assay: OC43 Mpro enzymatic assay; conditions: read-out: OC43 Mpro IC50; Table 3
Procedure: as §1, §2, §3, §4

Measured: IC50

CC1(C)[C@@H]2[C@@H](C(=O)N[C@H](C#N)C[C@@H]3CC4(CC4)NC3=O)N(C(=O)C(NC(=O)C(F)(F)F)C3CC(F)(F)C3)C[C@@H]21 (single isomer, unassigned)
< 2 µM: all assays above

Reference: patent publication US20240277795A1, “INHIBITORS OF CYSTEINE PROTEASES AND METHODS OF USE THEREOF” (Pardes Biosciences, Inc., priority 2021, published 2024)
